Test results taken from patent publication US9079899B2, “Anti-staphylococcal celecoxib derivatives” (THE OHIO STATE UNIVERSITY, priority 2010, dated 2015).

Each compound was assayed on HT-29 human colon adenocarcinoma cells (assay: Antiproliferative assay (MTT)). Conditions: IC50 (HT-29) / MIC against S. aureus.
Format: cell-based
Procedure: As celecoxib has been reported to be cytotoxic to cancer cells, the growth inhibitory activities of celecoxib and selected derivatives were assessed in. HT-29 human colon adenocarcinoma cells after 24-h exposure in 10% FBS-supplemented RPMI 1640 medium.
Antiproliferative assay. The cytotoxicity of individual test agents in HT-29 human colon adenocarcinoma cells was evaluated by using the 3-(4,5-dimethylthiazol-2-yl)-2,5-diphenyltetrazolium (MTT) assay. Briefly, HT-29 cells were seeded into 96-well plates at 1×10^4 cells/well (with a minimum of 6 wells per test condition) in RPMI 1640 medium supplemented with 10% FBS and 10 μg/ml of gentamicin. After overnight incubation at 37° C. under 5% CO2, the medium from each well was removed and replenished with fresh aliquots of the same medium containing various concentrations of test agents dissolved in DMSO (final concentration, 0.1%). Control cells were treated with DMSO alone at a concentration equal to that in drug-treated cells. After 24 h of drug exposure, the medium was removed and replaced by 100 μl of 0.5 mg/ml MTT in 10% FBS-containing medium, and the cells were incubated in the CO2 incubator at 37° C. for 2 h. Subsequently, medium was removed from each well, and the reduced MTT dye was dissolved with 100 μl of DMSO per well. Absorbance at 570 nm was measured with a plate reader. The 50% inhibitory concentration (IC50) of each drug was determined from dose-response curves by using CalcuSyn software (Biosoft, Cambridge, United Kingdom).
`NS(=O)(=O)c1ccc(-n2nc(C(F)(F)F)cc2-c2ccc(-c3ccc(Cl)cc3)cc2)cc1` [Compound 11] gave a Selectivity ratio of 3.1. `NCC(=O)Nc1ccc(-n2nc(C(F)(F)F)cc2-c2ccc3c(ccc4ccccc43)c2)cc1` [Compound 23] showed a Selectivity ratio of 0.9. With `NCC(=O)Nc1ccc(-n2nc(C(F)(F)F)cc2-c2ccc3c(c2)Nc2ccccc2S3)cc1` [Compound 24] the Selectivity ratio was 1.6. Compound `NCC(=O)Nc1ccc(-n2nc(C(F)(F)F)cc2-c2ccc3oc4ccccc4c3c2)cc1` [Compound 25] has a Selectivity ratio of 1.6. Compound `NCCC(=O)Nc1ccc(-n2nc(C(F)(F)F)cc2-c2ccc(-c3ccc(C(F)(F)F)cc3)cc2)cc1` [Compound 26] has a Selectivity ratio of 1.1. With `NCCC(=O)Nc1ccc(-n2nc(C(F)(F)F)cc2-c2ccc3c(ccc4ccccc43)c2)cc1` [Compound 27] the Selectivity ratio was 1.5. `NCCC(=O)Nc1ccc(-n2nc(C(F)(F)F)cc2-c2ccc3c(c2)Nc2ccccc2S3)cc1` [Compound 28] was tested, and the Selectivity ratio was 1.9. Compound `NCCC(=O)Nc1ccc(-n2nc(C(F)(F)F)cc2-c2ccc3oc4ccccc4c3c2)cc1` [Compound 29] has a Selectivity ratio of 1.8. With `NCCCC[C@@H](N)C(=O)Nc1ccc(-n2nc(C(F)(F)F)cc2-c2ccc3c(ccc4ccccc43)c2)cc1` [Compound 30] the Selectivity ratio was 0.8. `NCCCC[C@@H](N)C(=O)Nc1ccc(-n2nc(C(F)(F)F)cc2-c2ccc3c(c2)Nc2ccccc2S3)cc1` [Compound 31] showed a Selectivity ratio of 4.4. With `NCCCC[C@H](N)C(=O)Nc1ccc(-n2nc(C(F)(F)F)cc2-c2ccc(-c3ccc(C(F)(F)F)cc3)cc2)cc1` [Compound 33] the Selectivity ratio was 0.8. Compound `NCCCC[C@H](N)C(=O)Nc1ccc(-n2nc(C(F)(F)F)cc2-c2ccc3c(ccc4ccccc43)c2)cc1` [Compound 34] has a Selectivity ratio of 4.9. `NCCCC[C@H](N)C(=O)Nc1ccc(-n2nc(C(F)(F)F)cc2-c2ccc3c(c2)Nc2ccccc2S3)cc1` [Compound 35] showed a Selectivity ratio of 2.6.
